Results of unrelated studies side by side (data: NIAID ChemDB).

Shared fields: growth or infection tests; agent: HIV-1; cells: Macrophage + Monocytes/macrophages; measure: EC50

ECn is the concentration giving n% inhibition of infection, replication or growth. Neighbouring rows are from separate reports. Blank or dashed fields: not listed here.

SMILES	strain	mutations	method	conditions	value
Cc1cn([C@H]2C[C@H](N=[N+]=[N-])[C@@H](CO)O2)c(=O)[nH]c1=O	BaL		p24		0.06 µM
Cc1cn([C@H]2C[C@H](N=[N+]=[N-])[C@@H](CO)O2)c(=O)[nH]c1=O	BaL		cytopathic effect / XTT	clinical isolate	0.03 µM
O=c1[nH]cnc2c1ncn2[C@H]1CC[C@@H](CO)O1	BaL		p24		0.12 µM
CC(=O)N(O)CCCCCNC(=O)CCC(=O)N(O)CCCCCNC(=O)CCC(=O)N(O)CCCCCN	BaL		XTT / p24		~100 µM
CC1(C)CC[C@]2(C(=O)O)CC[C@]3(C)C(=CC[C@@H]4[C@@]5(C)CC[C@H](O)C(C)(C)[C@@H]5CC[C@]43C)[C@@H]2C1	Primary clinical isolate Rome		p24		57.4 µM
COc1ccccc1CN[C@H]1C2CCN(CC2)[C@H]1C(c1ccccc1)c1ccccc1	ADA R5 isolate		RT activity		<0.1 µM
CCc1cc(NCc2nc3c(Cl)ccc(Cl)c3o2)c(=O)[nH]c1C	BaL		p24		0.05 µM
CCCCCCCCCCC1CN(C(=O)c2cc(OC)c(OC)c(OC)c2)CCN1C(=O)c1cc(OC)c(OC)c(OC)c1	BaL		RT activity		>10 µM
C[C@@H](Cn1cnc2c(N)ncnc21)OCP(=O)(O)O	BaL		p24 / syncytia		1.4 µM
CC(C)Nc1cccnc1N1CCN(C(=O)c2cc3cc(NS(C)(=O)=O)ccc3[nH]2)CC1	BaL	RT-V106A	p24		3.2 µM
Cc1cc(C)cc([C@]23SCCN2C(=O)c2ccccc23)c1	D79		p24 / ELISA		0.016 µM
O=C(O)P(=O)(O)O	BaL		p24		5.82 µM
C=C(C)OC(=O)N1c2cc(Cl)ccc2NC(=S)C1(C)C	D117III		p24		0.008 µM
CNCCSS(=O)(=O)CCNC	ADA		XTT / p24		>100 µM
COc1cc(C(=O)N2CCN(C(=O)c3cc(OC)c(OC)c(OC)c3)C(COC(=O)NC(C)CC(C)C)C2)cc(OC)c1OC	BaL		RT activity		>100 µM
CN=C1CN=C(c2ccc[nH]2)c2cc(Cl)ccc2N1	BaL		p24		0.09 µM
Nc1ncnc2c1ncn2C[C@@H](CO)OCP(=O)(O)O	BaL				3.2 µM
CCN(CC)C(=O)OCC1CN(C(=O)c2cc(OC)c(OC)c(OC)c2)CCN1C(=O)c1cc(OC)c(OC)c(OC)c1	DAS Primary isolate		RT activity		10 µM
Cc1ccnc2c1NC(=O)c1cccnc1N2C1CC1	D79		p24 / ELISA		0.026 µM
Nc1nc(N)c2ncn(CCOCP(=O)(O)O)c2n1	BaL				0.076 µM
C[C@H](Cn1cnc2c(N)ncnc21)OCP(=O)(O)O	BaL		p24 / syncytia		0.04 µM

Repeating the first 2 entries:

SMILES,strain,mutations,method,conditions,value
Cc1cn([C@H]2C[C@H](N=[N+]=[N-])[C@@H](CO)O2)c(=O)[nH]c1=O,BaL,,p24,,0.06 µM
Cc1cn([C@H]2C[C@H](N=[N+]=[N-])[C@@H](CO)O2)c(=O)[nH]c1=O,BaL,,cytopathic effect / XTT,clinical isolate,0.03 µM